Experimental data: PubChem BioAssay AID1259414 (Drosophila RNAi Screening Center, 2018)

- Test: 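Host factors increasing or decreasing Wolbachia levels in cultured fly cells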 (primary screen)
- Cells: Drosophila JW18 cells infected with Wolbachia
- Reagent: long dsRNA against Drosophila genes, 0.25 µg dsRNA per well of a 384-well plate
- Timing: 5 days
- Conditions: cells persistently infected with Wolbachia before knock-down; no added drug
- Detection: 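Imaged fluorescence in situ signal for Wolbachia 23S rRNA per DAPI-counted host cell, given as a robust z-score within each plate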
- Direction: Wolbachia per cell robust z: higher = more Wolbachia per host cell than the plate typical
- Hit rule: 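Hit when robust z is 1.5 or more, or -1.5 or less, in at least two of three replicates; excludes dsRNAs with several or no targets, genes not expressed in JW18 and well A1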
The screen tested about 24,000 reagents; below is an unselected part of those with a known target gene and a result. In the full data, about 1,210 (5%) were called active. 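Inactive calls also include excluded dsRNAs with several or no targets, genes unexpressed in JW18, and well A1, regardless of score.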

Silencing of Yeti [DRSC21138] gave: Wolbachia per cell robust z, rep 1 = 0.258; Wolbachia per cell robust z, rep 2 = -0.726; Wolbachia per cell robust z, rep 3 = 0.164; inactive.
For Sec61gamma (Sec61 gamma subunit) [DRSC19570], the values are Wolbachia per cell robust z, rep 1 = 0.897; Wolbachia per cell robust z, rep 2 = 0.855; Wolbachia per cell robust z, rep 3 = 0.551; inactive.
For Sec61gamma (Sec61 gamma subunit) [DRSC25563], the entry reads Wolbachia per cell robust z, rep 1 = -4.32; Wolbachia per cell robust z, rep 2 = 1.48; Wolbachia per cell robust z, rep 3 = 0.335; inactive.
Against Cpr47Ee (Cuticular protein 47Ee) [DRSC23164], the entry reads Wolbachia per cell robust z, rep 1 = -0.21; Wolbachia per cell robust z, rep 2 = -0.112; Wolbachia per cell robust z, rep 3 = 0.403; inactive.
Rh50 [DRSC08692] scored Wolbachia per cell robust z, rep 1 = -0.52; Wolbachia per cell robust z, rep 2 = -0.0486; Wolbachia per cell robust z, rep 3 = -4.94; inactive.
Against CG3436 [DRSC00605], the values are Wolbachia per cell robust z, rep 1 = -6.4; Wolbachia per cell robust z, rep 2 = 0.771; Wolbachia per cell robust z, rep 3 = 0.835; inactive.
Silencing of tinc (tincar) [DRSC14798] resulted in: Wolbachia per cell robust z, rep 1 = 0.781; Wolbachia per cell robust z, rep 2 = 0.47; Wolbachia per cell robust z, rep 3 = 0.869; inactive.
After knock-down of tinc (tincar) [DRSC14799], the record shows Wolbachia per cell robust z, rep 1 = 1.17; Wolbachia per cell robust z, rep 2 = 1.26; Wolbachia per cell robust z, rep 3 = -0.881; inactive.
Knock-down of tinc (tincar) [DRSC16308] gave: Wolbachia per cell robust z, rep 1 = -3.54; Wolbachia per cell robust z, rep 2 = -5.34; Wolbachia per cell robust z, rep 3 = -0.546; inactive.
tinc (tincar) [DRSC16309] gave Wolbachia per cell robust z, rep 1 = 0.35; Wolbachia per cell robust z, rep 2 = -0.233; Wolbachia per cell robust z, rep 3 = -1.09; inactive.
CG11584 [DRSC19408] scored Wolbachia per cell robust z, rep 1 = 0.416; Wolbachia per cell robust z, rep 2 = 1.06; Wolbachia per cell robust z, rep 3 = 0.0455; inactive.
Against CG11584 [DRSC25623], the values are Wolbachia per cell robust z, rep 1 = 0.415; Wolbachia per cell robust z, rep 2 = 0.131; Wolbachia per cell robust z, rep 3 = 0.982; inactive.
After knock-down of ABCB7 (ATP binding cassette subfamily B member 7) [DRSC08603], the screen gave Wolbachia per cell robust z, rep 1 = 1.02; Wolbachia per cell robust z, rep 2 = 1.35; Wolbachia per cell robust z, rep 3 = 0.539; inactive.

Only “Wolbachia per cell robust z, rep 1” (3 entries from above):
Rh50 [DRSC08692]: -0.52
CG3436 [DRSC00605]: -6.4
tinc (tincar) [DRSC14798]: 0.781

The list goes on.
Against CG5554 [DRSC04513], the entry reads Wolbachia per cell robust z, rep 1 = 0.795; Wolbachia per cell robust z, rep 2 = 1.31; Wolbachia per cell robust z, rep 3 = 1.27; inactive.
CG5554 [DRSC25559] gave Wolbachia per cell robust z, rep 1 = 0.815; Wolbachia per cell robust z, rep 2 = 0.217; Wolbachia per cell robust z, rep 3 = 0.853; inactive.
Hinfp (Histone H4 transcription factor) [DRSC18484] gave Wolbachia per cell robust z, rep 1 = 0.486; Wolbachia per cell robust z, rep 2 = 0.068; Wolbachia per cell robust z, rep 3 = -0.204; inactive.
Against Hinfp (Histone H4 transcription factor) [DRSC24069], the entry reads Wolbachia per cell robust z, rep 1 = -0.556; Wolbachia per cell robust z, rep 2 = -2.06; Wolbachia per cell robust z, rep 3 = -1.07; inactive.
Depletion of CG13358 [DRSC18534] gave: Wolbachia per cell robust z, rep 1 = -0.6; Wolbachia per cell robust z, rep 2 = -0.462; Wolbachia per cell robust z, rep 3 = 0.766; inactive.
Depletion of CG13358 [DRSC23742] came out at: Wolbachia per cell robust z, rep 1 = 1.2; Wolbachia per cell robust z, rep 2 = -0.164; Wolbachia per cell robust z, rep 3 = -1.57; inactive.
eIF2Bepsilon (eukaryotic translation initiation factor 2B subunit epsilon) [DRSC18769] showed Wolbachia per cell robust z, rep 1 = -0.00468; Wolbachia per cell robust z, rep 2 = -0.0577; Wolbachia per cell robust z, rep 3 = -1.52; inactive.
Silencing of CG10098 [DRSC12509] gave: Wolbachia per cell robust z, rep 1 = 0.209; Wolbachia per cell robust z, rep 2 = -0.213; Wolbachia per cell robust z, rep 3 = 0.89; inactive.
Knock-down of CG10098 [DRSC26223] came out at: Wolbachia per cell robust z, rep 1 = 0.833; Wolbachia per cell robust z, rep 2 = -0.416; Wolbachia per cell robust z, rep 3 = 0.511; inactive.
For Tep2 (Thioester-containing protein 2) [DRSC02679], the entry reads Wolbachia per cell robust z, rep 1 = -0.145; Wolbachia per cell robust z, rep 2 = -0.277; Wolbachia per cell robust z, rep 3 = -4.51; inactive.
Silencing of Tep2 (Thioester-containing protein 2) [DRSC03451] came out at: Wolbachia per cell robust z, rep 1 = -0.323; Wolbachia per cell robust z, rep 2 = 0.432; Wolbachia per cell robust z, rep 3 = -0.171; inactive.
